Human monoclonal antibodies against the spike receptor-binding domain (heavy:light variable regions). IC50 against pseudoviruses bearing the spike of naturally observed variants; lower = stronger; >10 µg/ml means not reached at the top dose. No active / inactive call. The stated detection limit is 0.0005 µg/ml; values near or below 0.001 µg/ml lie at the floor of the assay.
B1: BD55-6616 (protein)
chain 1: QVQLVQSGSELKKPGASVKVSCKASGYTFTNYAMHWVRQAPGQGLEWMGWINTNTGNPTYGQGFTGRFVFSLDTSVSTAYLQISSLKAEDTAVYYCARADRNYYGYEASDIWGQGTMVIVSS
chain 2: DIQMTQSPSSLSASVGDRVTITCRASQSISNYLNWYQQKPGKAPNLLIYAASSLQSGVPSRFTGSGSGTDFTLTISSLQPEDFATYYCQQSYSSHLFTFGGGTKVEI
B2: BD55-6600 (protein)
chain 1: QVQLVQSGAEVKKPGASVKVSCKASGYTFIGYYMHWVRQAPGQGLEWMGWVNPNSGDTQYKQKFQGRVTVTRDTSINTVYMDLSRLRSDDTAVYYCAREQKVVRGVWSYYGLDFWGQGTTVTVSS
chain 2: QSVLTQPPSASGTPGQRVTISCSGSSSNIGGNTVNWYQQLPGTAPKLLIYRNNQRPSGVPDRFSGSKSGTSASLAISGLQSEDEADYYCEARDDSLNSVVFGGGTKLTVL
B3: BD55-6611 (protein)
chain 1: EVQLVESGGGLVQPGGSLRLSCAASGFTFSAYAMHWVRQAPGKGLEYVSAITSDGGGTFYADSVKGRFTISRDNSRNTLFLQMGSLRAEDMAVYYCAREGIYSYGLYFDYWGQGSLVTVSS
chain 2: DIQMTQSPSSLSASVGDRISITCRASQSISNYLNWYQQKPGKAPKLLIYAASSLQSGVPSRFSGSGSGTDFTLTISSLQPEDFATYYCQQSYLTPMYSFGQGTKLEFK
B4: BD55-6612 (protein)
chain 1: QVQLVQSGAEVKKPGASVKISCKVSGYSFTAYYMHWVRQAPGQGLEWMGWINPDSGGTKYAQKFQGRVTMTRDTSSSTAYMELRRLRSDDTAVFYCARGPAVTAMQYFYYYGMDVWGQGTTVTVSS
chain 2: SYELTQPPSVSVSPGQTARITCSGDALPNQYSYWYHQKPGQVPVLVIYKDNERPSGIPERFSGSRSGTTVTLTISGVQSEDEADYYCQSVDSSASWVFGGGTKLTVL
B5: BD55-6617 (protein)
chain 1: QVQLQQSGPGLVRPSGTLSLTCAVSGASVTSTDWWNWVRQSPKKGLEWIGEIYHNGGTNYNPSLKSRVTISIDTSKNQFSLKLASVTAADTAVYYCATAAGETHYYPMGSYSPFDNWGQGALVTVSS
chain 2: DIVMTQSPDSLAVSLGERATINCKSSQSVLYSSNNKNYLAWYQQKPGQPPKKLIYWASTRESGVPDRFSGSGSGTDFTLTISSLQAEDVAVYYCQQYFHSPRAFGQGTRLEIK
B6: BD55-6586 (protein)
chain 1: EVQLLESGGGLVQPGGSLRLSCAASGLIFSTYAMNWVRQAPGKGLEWVSGISGSGGSSYHADSVKARFTISRDNSKNTLYLQMNSLRAEDTAVYYCAKFDSSSFLENYYYYYMDVWGKGTTVTVSS
chain 2: SSELTQSPSVSVSSGQTATITCSGDKLGDKSASWYQQKPGQSPVLIIYHDAKRPSGISERFSGSNSGNTATLTITGTQTLDEADYYCQAWNSNTGLVVFGGGTKLTVL

Molecular target: SARS-CoV-2 Omicron BA.1 spike pseudovirus
Test: pseudovirus neutralization IC50; higher = weaker neutralization
Procedure: (§1)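 Single-round VSV luciferase pseudovirus mixed with antibody dilutions for 1 h and put on Huh-7 cells for about a day; IC50 from the dose curve.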

Q: With B1 as the binder, how does the “pseudovirus neutralization IC50” value read?
A: > 10 µg/mL

Q: Which “pseudovirus neutralization IC50” value does the source give for B2 here?
A: > 10 µg/mL

Q: B3 was tested. Which “pseudovirus neutralization IC50” value did it give?
A: > 10 µg/mL

Q: B4 was tested. Which “pseudovirus neutralization IC50” value did it give?
A: > 10 µg/mL

Q: With B5 as the binder, how does the “pseudovirus neutralization IC50” value read?
A: > 10 µg/mL

Q: Which “pseudovirus neutralization IC50” value does the source give for B6 here?
A: > 10 µg/mL

Molecular target: SARS-CoV-2 Omicron BA.2 spike pseudovirus
Test: as above
Procedure: as §1

Q: Which “pseudovirus neutralization IC50” value does the source give for B1 here?
A: > 10 µg/mL

Q: With B2 as the binder, how does the “pseudovirus neutralization IC50” value read?
A: > 10 µg/mL

Q: With B3 as the binder, how does the “pseudovirus neutralization IC50” value read?
A: > 10 µg/mL

Q: How did the “pseudovirus neutralization IC50” value turn out when B4 was run?
A: > 10 µg/mL

Q: How did the “pseudovirus neutralization IC50” value turn out when B5 was run?
A: > 10 µg/mL

Q: B6 was tested. Which “pseudovirus neutralization IC50” value did it give?
A: > 10 µg/mL

Molecular target: SARS-CoV-2 Omicron BA.2.75 spike pseudovirus
Test: as above
Procedure: as §1

Q: B1 was tested. Which “pseudovirus neutralization IC50” value did it give?
A: > 10 µg/mL

Q: For B2, which “pseudovirus neutralization IC50” value is on record?
A: > 10 µg/mL

Q: Which “pseudovirus neutralization IC50” value does the source give for B3 here?
A: > 10 µg/mL

Q: Which “pseudovirus neutralization IC50” value does the source give for B4 here?
A: > 10 µg/mL

Q: For B5, which “pseudovirus neutralization IC50” value is on record?
A: > 10 µg/mL

Q: With B6 as the binder, how does the “pseudovirus neutralization IC50” value read?
A: > 10 µg/mL

Molecular target: SARS-CoV-2 Omicron BA.5 spike pseudovirus
Test: as above
Procedure: as §1

Q: With B1 as the binder, how does the “pseudovirus neutralization IC50” value read?
A: > 10 µg/mL

Q: For B2, which “pseudovirus neutralization IC50” value is on record?
A: > 10 µg/mL

Q: Which “pseudovirus neutralization IC50” value does the source give for B3 here?
A: > 10 µg/mL

Q: Which “pseudovirus neutralization IC50” value does the source give for B4 here?
A: > 10 µg/mL

Q: For B5, which “pseudovirus neutralization IC50” value is on record?
A: > 10 µg/mL

Q: With B6 as the binder, how does the “pseudovirus neutralization IC50” value read?
A: > 10 µg/mL

Molecular target: SARS-CoV-2 Omicron BQ.1.1 spike pseudovirus
Test: as above
Procedure: as §1

Q: B1 was tested. Which “pseudovirus neutralization IC50” value did it give?
A: > 10 µg/mL

Q: B2 was tested. Which “pseudovirus neutralization IC50” value did it give?
A: > 10 µg/mL

Q: How did the “pseudovirus neutralization IC50” value turn out when B3 was run?
A: > 10 µg/mL

Q: With B4 as the binder, how does the “pseudovirus neutralization IC50” value read?
A: > 10 µg/mL

Q: How did the “pseudovirus neutralization IC50” value turn out when B5 was run?
A: > 10 µg/mL

Q: Which “pseudovirus neutralization IC50” value does the source give for B6 here?
A: > 10 µg/mL

Molecular target: SARS-CoV-2 Omicron XBB spike pseudovirus
Test: as above
Procedure: as §1

Q: How did the “pseudovirus neutralization IC50” value turn out when B1 was run?
A: > 10 µg/mL

Q: Which “pseudovirus neutralization IC50” value does the source give for B2 here?
A: > 10 µg/mL

Q: For B3, which “pseudovirus neutralization IC50” value is on record?
A: > 10 µg/mL

Q: For B4, which “pseudovirus neutralization IC50” value is on record?
A: > 10 µg/mL

Q: Which “pseudovirus neutralization IC50” value does the source give for B5 here?
A: > 10 µg/mL

Q: With B6 as the binder, how does the “pseudovirus neutralization IC50” value read?
A: > 10 µg/mL

Molecular target: SARS-CoV-2 early D614G spike pseudovirus
Test: as above
Procedure: as §1

Q: Which “pseudovirus neutralization IC50” value does the source give for B1 here?
A: > 10 µg/mL

Q: With B2 as the binder, how does the “pseudovirus neutralization IC50” value read?
A: > 10 µg/mL

Q: How did the “pseudovirus neutralization IC50” value turn out when B3 was run?
A: > 10 µg/mL

Q: B4 was tested. Which “pseudovirus neutralization IC50” value did it give?
A: > 10 µg/mL

Q: With B5 as the binder, how does the “pseudovirus neutralization IC50” value read?
A: > 10 µg/mL

Q: How did the “pseudovirus neutralization IC50” value turn out when B6 was run?
A: > 10 µg/mL

Reference: the supplement of paper PMC9931576
